{"source": "paper PMC2908543", "about": "“Uropathogenic Escherichia coli Modulates Immune Responses and Its Curli Fimbriae Interact with the Antimicrobial Peptide LL-37” (PLoS Pathogens, 2010)", "test_system": "CsgA", "assay": "CD spectroscopy of CsgA", "design": "species or system Escherichia coli", "settings": "40 µM CsgA with 10 µM LL-37, 50 mM KPi, 0.02% NaN3, pH 7.2, 60 h at 37°C, 190 to 250 nm, spectrum at 20°C", "method": "Samples containing 40 µM CsgA in 50 mM potassium phosphate buffer (KPi) and 0.02% NaN3, pH 7.2, with and without 10 µM LL-37 were incubated for 60 h at 37°C. The samples were then assayed with a Jasco J-810 spectropolarimeter from 190 to 250 nm in a quartz cell with a 1-mm path length at 20°C. The spectrum of buffer alone and LL-37 in buffer was subtracted from the spectra for CsgA alone and for CsgA together with LL-37, respectively."}
{"smiles": "CC[C@H](C)[C@H](NC(=O)[C@H](CCCCN)NC(=O)[C@H](CCC(=O)O)NC(=O)[C@H](CCCCN)NC(=O)[C@H](CO)NC(=O)[C@H](CCCCN)NC(=O)[C@H](CCCNC(=N)N)NC(=O)[C@H](Cc1ccccc1)NC(=O)[C@H](Cc1ccccc1)NC(=O)[C@H](CC(=O)O)NC(=O)CNC(=O)[C@H](CC(C)C)NC(=O)[C@@H](N)CC(C)C)C(=O)NCC(=O)N[C@@H](CCCCN)C(=O)N[C@@H](CCC(=O)O)C(=O)N[C@@H](Cc1ccccc1)C(=O)N[C@@H](CCCCN)C(=O)N[C@@H](CCCNC(=N)N)C(=O)N[C@H](C(=O)N[C@H](C(=O)N[C@@H](CCC(N)=O)C(=O)N[C@@H](CCCNC(=N)N)C(=O)N[C@H](C(=O)N[C@@H](CCCCN)C(=O)N[C@@H](CC(=O)O)C(=O)N[C@@H](Cc1ccccc1)C(=O)N[C@@H](CC(C)C)C(=O)N[C@@H](CCCNC(=N)N)C(=O)N[C@@H](CC(N)=O)C(=O)N[C@@H](CC(C)C)C(=O)N[C@H](C(=O)N1CCC[C@H]1C(=O)N[C@@H](CCCNC(=N)N)C(=O)N[C@H](C(=O)N[C@@H](CCC(=O)O)C(=O)N[C@@H](CO)C(=O)O)[C@@H](C)O)C(C)C)[C@@H](C)CC)C(C)C)[C@@H](C)CC", "note": "[LL-37]", "values": [{"measurement": "structure of CsgA in presence of LL-37 (CD)", "value": "unstructured, random coil structure"}]}
